Laboratory results reported in patent publication US20250152599A1 (priority 2020, published 2025).
“And” between values parts separate entries of the source, which are not always exact repeats. Equal values may be shown once. Read-outs that look alike come from different tables or passages of the source.

Experiments:
MRC5 cells = assay: Cytotoxicity on MRC5 cells, CellTiter Glo, no virus infection; conditions: the first test (first round), 3 days
[1] = tested on: novel coronavirus (SARS-CoV-2); conditions: second round, 48 hours, replicate wells, listed as Phenylarsine oxide

O=[As]c1ccccc1 (stereo not drawn)
CC50 (MRC5 cells): 257 nM | FAM Ct value ([1]; 12.5 nM): 15.36 and 15.38 | FAM Ct value ([1]; 50 nM): 17.41
